This passage reports SI results from patent publication EP1452605A1, “Method for determining antiviral activity” (Universiteit Utrecht Holding B.V., priority 2003, dated 2004).

In the data set the test system is HIV-1Ba-L. As to the kind of experiment: HIV-1 infection of PBMC, p24-core antigen ELISA. It counts as cell-based. Particulars: ratio TC50/IC50, PBMC. How it is done:
To correct for the input virus, an extra control consisting of medium containing the same amount of input virus as added to the cells was included in the experiment. The amount of p24 in this control was subsequently subtracted from the p24 values of the samples in order to obtain the exact amount of p24 produced by the cells. p24-core antigen quantification by ELISA After 2 or 7 days incubation, samples of the supernatants were collected, inactivated by addition of Empigen (Calbiochem, La Jolla, CA, USA) and by heat inactivation at 56°C for 30 min. p24-core antigen concentration was determined by an enzyme linked immunoabsorbent assay (ELISA) (AMPAK™, DAKO, Cambridgeshire, UK) as described previously ^18,19. The optical density values were converted into p24 concentration (ng/ml) with the use of a calibration curve made by serial dilutions of recombinant p24 protein (NIBSC, UK) that was submitted to the same treatment as the samples.
(§1) To correct for the input virus, an extra control consisting of medium containing the same amount of input virus as added to the cells was included in the experiment. The amount of p24 in this control was subsequently subtracted from the p24 values of the samples in order to obtain the exact amount of p24 produced by the cells.
After 7 days incubation, samples of the supernatants were collected, inactivated by addition of Empigen (Calbiochem, La Jolla, CA, USA) and by heat inactivation at 56°C for 30 min. p24-core antigen concentration was determined by an ELISA (AMPAK™, DAKO, Cambridgeshire, UK) as described previously ^39,40. The optical density values were converted into p24 concentration (ng/ml) with the use of a calibration curve made by serial dilutions of recombinant p24 protein (NIBSC, UK) that was submitted to the same treatment as the samples.
as §1
After 7 days incubation, samples of the supernatants were collected, inactivated by addition of Empigen (Calbiochem, La Jolla, CA, USA) and by heat inactivation at 56°C for 30 min. p24-core antigen concentration was determined by an enzyme linked immunoabsorbent assay (ELISA) (AMPAK™, DAKO, Cambridgeshire, UK) as described previously 15,16. The optical density values were converted into p24 concentration (ng/ml) with the use of a calibration curve made by serial dilutions of recombinant p24 protein (NIBSC, UK) that was submitted to the same treatment as the samples.
For orientation: In an ELISA, binding on a coated surface is turned into a signal by an enzyme label.

For the compound `CCCCCCCCSc1ccccc1OC(C)=O` [compound 9], the SI turned out to be 7.

As to `CCCCC#CCS(=O)(=O)c1ccccc1OC(C)=O` [APHS-d1], the SI came out at 86.

With `CCCCCCSc1ccccc1OC(C)=O` [compound 18], the SI was 48.

As for `CSc1ccccc1OC(C)=O` [APHS-d4], the SI stood at 2.

In the case of `CCCCC#CCSc1ccccc1OC(C)=O` [APHS, o-(acetoxyphenyl)hept-2-ynyl sulfide], the SI was determined as 18.

For `CCCCCCCSc1ccccc1OC(C)=O` [compound 11], the SI worked out at 5.

As to `CCCCCSc1ccccc1O` [compound 19], the SI came to 159.

For the compound `CC(=O)Oc1ccccc1C(=O)O` [aspirin, reference compound], the SI is 17.

With `CCCCCCCSc1ccccc1OC(C)=O` [APHS-d2], the SI amounted to 41.
